Source: patent publication US20250051300A1, “GRAM-NEGATIVE SPECIFIC ANTIBIOTICS SPARING EFFECT ON GUT MICROBIOME” (THE BOARD OF TRUSTEES OF THE UNIVERSITY OF ILLINOIS, priority 2021, published 2025)

Test system: E. coli BW25113
Assay: Accumulation assay (whole-cell, LC-MS/MS)
Type: cell-based, Escherichia coli
Settings: E. coli BW25113, 50 μM compound, 10 min

| SMILES | whole-cell accumulation in E. coli |
| --- | --- |
| Cc1cc(-c2nc(C(C)(C)C)[nH]c2-c2ccc3c(c2)OCCO3)ccn1 [Compound 1, 4-(2-(tert-butyl)-5-(2,3-dihydrobenzo[b][1,4]dioxin-6-yl)-1H-imidazol-4-yl)-2-methylpyridine] | accumulate very poorly |
| Cc1cc(-c2c[nH]nc2-c2cccc(OCc3cccc(C#N)c3)c2)cc(C)n1 [Compound 12, 3-((3-(4-(2,6-dimethylpyridin-4-yl)-1H-pyrazol-3-yl)phenoxy)methyl)benzonitrile] | below the limit of detection |
| Fc1ccc(COc2cccc(-c3n[nH]cc3-c3ccncc3)c2)cc1 [Compound 2, 4-(3-(3-((4-fluorobenzyl)oxy)phenyl)-1H-pyrazol-4-yl)pyridine] | accumulate very poorly |
